Results taken from PMC10359466, “Identification of a small-molecule inhibitor that selectively blocks DNA-binding by Trypanosoma brucei replication protein A1” (Nature Communications, 2023).

Key:
[1] = system: TbRPA complex: 6xHis-RPA1 + TbRPA2 + TbRPA3; assay: EMSA, MST; conditions: 20 mM Tris pH 7.5, 10 mM NaCl, 10 mM MgCl2, 2 mM DTT, 10% glycerol, 0.1 mg/ml BSA, 15 min, room temperature, EMSA 2 nM probe (gel at 4 C), MST 10 nM probe, recombinant protein, protein details: N-term 6xHis, thrombin site,none,none, label: 5' Cy5 (MST) or 5' IRDye800 (EMSA), single-stranded DNA
[2] = biological target: T1, TbRPA1 DBD-AB (Trypanosoma brucei) (UniProt Q384B5); assay: MST; conditions: with JC-229 (inhibitor IC50 881 nM); 20 mM Tris pH 7.5, 10 mM NaCl, 10 mM MgCl2, 2 mM DTT, 10% glycerol, 0.1 mg/ml BSA, 15 min, room temperature; recombinant protein; protein details: N-term 6xHis (pET28a); label: 5' Cy5 (MST) or 5' IRDye800 (EMSA); single-stranded DNA
T1 sequence (looked up, limits assumed): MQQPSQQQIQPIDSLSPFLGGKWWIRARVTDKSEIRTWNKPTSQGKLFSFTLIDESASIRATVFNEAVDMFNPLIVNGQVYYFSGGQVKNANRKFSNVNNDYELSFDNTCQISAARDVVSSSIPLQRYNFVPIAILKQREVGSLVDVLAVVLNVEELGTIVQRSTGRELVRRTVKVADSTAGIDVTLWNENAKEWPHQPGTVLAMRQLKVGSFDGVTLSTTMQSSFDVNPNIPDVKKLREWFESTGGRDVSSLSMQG

[3] = system: TbRPA complex: 6xHis-RPA1 + TbRPA2 + TbRPA3; assay: MST; conditions: with JC-229 (inhibitor IC50 33.9 nM); 20 mM Tris pH 7.5, 10 mM NaCl, 10 mM MgCl2, 2 mM DTT, 10% glycerol, 0.1 mg/ml BSA, 15 min, room temperature; recombinant protein; protein details: N-term 6xHis, thrombin site,none,none; label: 5' Cy5 (MST) or 5' IRDye800 (EMSA); single-stranded DNA
[4] = biological target: T1, TbRPA1 DBD-AB (Trypanosoma brucei); assay: EMSA, MST; conditions: with JC-229 (inhibitor IC50 228 nM by MST); 20 mM Tris pH 7.5, 10 mM NaCl, 10 mM MgCl2, 2 mM DTT, 10% glycerol, 0.1 mg/ml BSA, 15 min, room temperature; EMSA 2 nM probe (gel at 4 C), MST 10 nM probe; recombinant protein; protein details: N-term 6xHis (pET28a); label: 5' Cy5 (MST) or 5' IRDye800 (EMSA); single-stranded DNA
[5] = system: TbRPA complex: 6xHis-RPA1 + TbRPA2 + TbRPA3; assay: EMSA; conditions: 20 mM Tris pH 7.5, 10 mM NaCl, 10 mM MgCl2, 2 mM DTT, 10% glycerol, 0.1 mg/ml BSA, 15 min, room temperature; EMSA 2 nM probe (gel at 4 C), MST 10 nM probe; recombinant protein; protein details: N-term 6xHis, thrombin site,none,none; label: 5' Cy5 (MST) or 5' IRDye800 (EMSA); single-stranded DNA

TTTTTTTTTTTT [dT12]: binds more weakly [1].
TTTTTTTTTTTTTTTTTTTT [dT20]: binds more weakly [2]; binds more weakly [3].
TTTTTTTTTTTTTTTTTTTTTTTTTTTTTTTT [dT32]: binds more weakly [4]; binds more weakly ([1]; with JC-229 (inhibitor IC50 24.5 nM, 33.9 nM in length series, MST)); binds [5].

For at least one entry, the source does not settle the construct or the ends of the probe. For part of these data: A weaker result is weaker than the reference pair of the same experiment. For part of these data: Protein sequences can lack the tags named with them.
